Patent US8884011B2, “Nucleotide analogues as precursor molecules for antivirals” (Centre National de la Recherche Scientifique-CNRS, priority 2006, dated 2014)
Values joined by “and” are separate entries in the source; they are usually repeats but may differ in a detail not shown here. Equal values may be shown once.

Test system: K65R mutant RT of HIV-1
Assay type: biochemical

Nc1ncnc2c1ncn2CCOCP(O)(=S)OP(=O)(O)OP(=O)(O)O (stereo not shown) [Compound 12, 9-[2-(diphosphorylthiophosphonomethoxy)ethyl]adenine]
Resistance = Selectivity mutant RT/Selectivity wild-type RT: 2.8

C[C@H](Cn1cnc2c(N)ncnc21)OCP(O)(=S)OP(=O)(O)OP(=O)(O)O (stereo partly drawn) [Compound 13, (R)-9-[2-(pyrophosphoroxythiophosphonomethoxy)propyl]adenine]
Resistance = Selectivity mutant RT/Selectivity wild-type RT: 1

Nc1ncnc2c1ncn2CCOCP(=O)(O)OP(=O)(O)OP(=O)(O)O [PMEApp, PMEA diphosphate]
Resistance = Selectivity mutant RT/Selectivity wild-type RT: 2.16 and 2.2

C[C@@H](Cn1cnc2c(N)ncnc21)OCP(=O)(O)OP(=O)(O)OP(=O)(O)O [PMPApp, PMPA diphosphate]
Resistance = Selectivity mutant RT/Selectivity wild-type RT: 4.45 and 4.4
